{"source": "paper PMC3969353", "biological_target": "T1, HU PG0121 (tagless) (Porphyromonas gingivalis W83) (UniProt Q7MXP9)", "T1 sequence (looked up, limits assumed)": "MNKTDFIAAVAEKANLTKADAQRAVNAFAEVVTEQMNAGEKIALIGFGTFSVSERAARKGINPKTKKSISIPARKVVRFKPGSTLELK", "experiment": "EMSA", "settings": "EMSA: 52.5 mM HEPES pH 6.5, 50 uM EDTA, 9.5% glycerol, 100 mM KCl, 50 ug/ml BSA, 30 min, room temperature, 6% native PAGE in 0.5x TBE, recombinant protein, label: 5'-32P", "note": "The exact form of at least one protein or probe is not confirmed. At least one verdict rests on a figure or table, not on a statement of the authors. Tags and fusion partners may be left off the protein sequences shown.", "data": [{"sequence": "CAGGGCAATCGCATTTGAACCGTTACACACTTATAGATCTAACGATTGCTACGCTCGGTTATCAAACAAGTACGAAT / GTACTTGTTTGATAACCGAGCGTAGCAATCGTTAGATCTATAAGTGTGTAACGGTTCAAATGCGATTGCCCTG [3'-overhang]", "values": [{"measurement": "binding result", "setting": "affinity rank 8 of 11, Kd only in Fig 3", "result": "binds"}]}, {"sequence": "CAGGGCAATCGCATTTGAACCGTTACACACTTATAGATCTAACGATTGCTACGCTCGGTTATCAAACAAGTACGAAT / ATTCGTACTTGTTTGATAACCGAGCGTAGCAATCGTTAGATCTATAAGTCAGTAACGGTTGTAATGCGATTGCCCTG [Loop 2]", "values": [{"measurement": "binding result", "setting": "bend permutation", "result": "binds"}]}, {"sequence": "CAGGGCAATCGCATTTGAACCGTTACACACTTATAGATCTAACGATTGCTACGCTCGGTTATCAAACAAGTACGAAT / ATTCGCACTTGTTTGATAATTGAATGTAGCAATCATGAGATCTATAAGTGTGTAACGGTTCAAATGCGATTGTCCTG [Heteroduplex I]", "values": [{"measurement": "Kd", "result": 67.5, "unit": "nM"}]}, {"sequence": "CAGGGCAATCGCATTTGAACCGTTACACACTTATAGATCTAACGATTGCTACGCTCGGTTATCAAACAAGTACGAAT / ATTCGTACTTGTTTGATAACCGAGCGTAGCAATCCCCGTTAGATCTCCCATAAGTGTGTAACGGTTCAAATGCGATTGCCCTG [Bulges]", "values": [{"measurement": "binding result", "setting": "affinity rank 1 of 11, Kd only in Fig 3", "result": "binds"}]}, {"sequence": "CAGGGCAATCGCATTTGAACCGTTACACACTTATAGATCTAACGATTGCTACGCTCGGTTATCAAACAAGTACGAAT (double strand) [Homoduplex I]", "values": [{"measurement": "Kd", "result": 84, "unit": "nM"}]}, {"sequence": "CAGGGCAATCGCATTTGAACCGTTACACACTTATAGATCTAACGATTGCTACGCTCGGTTATCAAACAAGTACGAAT / ATTCGTACTTGTTTGTAAACCGAGCGATGCAATCGTTAGATCTATAAGTGTGTAACGGTTCAAATGCGATTGCCCTG [Loop 3]", "values": [{"measurement": "binding result", "setting": "bend permutation", "result": "binds"}]}, {"sequence": "CAGGGCAATCGCATTTGAACCGTTACACACTTATAGATCTAACGATTGCTACGCTCGGTTATCAAACAAGTACGAAT / ATTCGTACTTGTTTGATAACCGAGCGTAGCAAAGGTTAGATCTTAAAGTGTGTAACGGTTCAAATGCGATTGCCCTG [Loop (original, central)]", "values": [{"measurement": "binding result", "setting": "affinity rank 2 of 11, Kd only in Fig 3", "result": "binds"}]}, {"sequence": "CAGGGCAATCGCATTTGAACCGTTACACACTTATAGATCTAACGATTGCTACGCTCGGTTATCAAACAAGTACGAAT / ATCTATAAGTGTGTAACGGTTCAAATGCGATTGCCCTG / ATTCGTACTTGTTTGATAACCGAGCGTAGCAATCGTTA [Gap-1]", "values": [{"measurement": "binding result", "setting": "affinity rank 3 of 11, Kd only in Fig 3", "result": "binds"}]}, {"sequence": "CAGGACAATCGCATTTGAACCGTTACACACTTATAGATCTCATGATTGCTACATTCAATTATCAAACAAGTGCGAAT (double strand) [Homoduplex II]", "values": [{"measurement": "binding result", "setting": "affinity rank 7 of 11, Kd only in Fig 3, single experiment", "result": "binds"}]}, {"sequence": "CAGGGCAATCGCATTTGAACCGTTACACACTTATAGATCTAACGATTGCTACGCTCGGTTATCAAACAAGTACGAAT / ATCTATAAGTGTGTAACGGTTCAAATGCGATTGCCCTG / ATTCGTACTTGTTTGATAACCGAGCGTAGCAATCGTT [Gap-2]", "values": [{"measurement": "binding result", "setting": "affinity rank 5 of 11, Kd only in Fig 3", "result": "binds"}]}]}
